Measured values from several laboratories, pooled; numbers as filed in NIAID ChemDB.

Shared fields: growth or infection tests; agent: Aspergillus niger; measure: MIC

Two numbers with a dash give a range or band.

structure | strain | method | value
N#[N+]c1nc(-c2ccccc2)[nH]c1C(=O)N1CCCC1 | L32 | - | >200 µg/mL
OC(Cn1cncn1)(Cn1cncn1)c1ccc(F)cc1F | MTCC 1344 | broth dilution | 100 µg/mL
COc1cc(O)c2c(=O)c(OC)c(-c3ccc(OC4O[C@H](CO)[C@@H](O)[C@H](O)[C@H]4O)cc3)oc2c1 | - | - | 160 µg/mL
COc1ccc(-c2cc(-c3ccc4oc(=O)c(-c5ccccc5)c(C)c4c3)nc3c2Cc2ccccc2-3)cc1OC | MTCC 282 | broth dilution / turbidity | >1000 µg/mL
FC(F)(F)Oc1ccc(COc2cccc3cccnc23)cc1 | - | broth dilution | >100 µg/mL
C[C@H]1[C@H](O)[C@@H](C)/C=C/C=C/C=C/C=C/C=C/C=C/C=C/[C@H](O[C@@H]2O[C@H](C)[C@@H](O)[C@H](N)[C@@H]2O)C[C@@H]2O[C@](O)(C[C@@H](O)C[C@@H](O)CC[C@H](O)[C@@H](O)C[C@@H](O)CC(=O)O[C@H]1C)C[C@H](O)[C@H]2C(=O)O | - | - | 0.25–2 µg/mL
CC1=C(C)C(=O)O[C@@H]([C@H](O)[C@]2(O)CC[C@]3(O)[C@@H]2CC[C@H]2[C@H]3CC=C3C=CCC(=O)[C@@]32C)C1 | - | - | 300 µg/mL
C[C@@H]1[C@H](O)[C@@H](C)/C=C/C=C/CC/C=C/C=C/C=C/C=C/C(O[C@H]2O[C@H](C)[C@@H](O)[C@H](N)[C@@H]2O)CC2O[C@](O)(CC(O)C(O)CCC(O)CC(O)CC(O)CC(=O)O[C@H]1C)CC(O)C2C(=O)O | MTCC 282 | - | 100 µg/mL
Cc1ccc(-c2nc([N+]#N)c(C(=O)N3CCCC3)[nH]2)cc1 | L32 | - | 100 µg/mL
Cc1ccc(-c2cc(-c3ccc4oc(=O)c(-c5ccccc5)c(C)c4c3)nc3c2CCc2ccccc2-3)cc1 | MTCC 282 | broth dilution / turbidity | >1000 µg/mL
Cc1ccc(N2NOC(=O)C2S(=O)(=O)Nc2nc(-c3ccc(Br)cc3)cs2)cc1 | MTCC 282 | broth dilution | 250 µg/mL
Oc1c(Br)ccc2cccnc12 | ATCC 1004 | - | 3 µg/mL
N#[N+]c1nc(-c2ccc(Cl)cc2)[nH]c1C(=O)N1CCCC1 | L32 | - | 25 µg/mL
CNc1ccc(C(=O)CC(O)CC[C@H](C)[C@H]2OC(=O)C[C@H](O)CC(=O)CC(O)CC(O)CC(O)CC(O)C[C@]3(O)C[C@H](O)[C@@H](C(=O)NCCN(C)C)[C@H](C[C@@H](O[C@@H]4OC(C)[C@@H](O)[C@H](NC(=O)CN(C)C)[C@@H]4O)/C=C/C=C/C=C/C=C/C=C/C=C/C=C/[C@@H]2C)O3)cc1.O=C1O[C@H]([C@@H](O)CO)C(O)=C1O.O=C1O[C@H]([C@@H](O)CO)C(O)=C1O | TIMM 2814 | broth dilution | 0.0625 µg/mL
Cc1ccc(N2NOC(=O)C2S(=O)(=O)Nc2ccc(-n3c(-c4c(Cl)cccc4[N+](=O)[O-])nc4ccccc4c3=O)cc2)cc1 | MTCC 282 | broth dilution | 1000 µg/mL
COC(=O)Cn1[se]c2ccccc2c1=O | - | agar | 17 µg/mL
Brc1cccc(COc2cccc3cccnc23)c1 | - | broth dilution | 3.125 µg/mL
Oc1ccc(Cl)c2cccnc12 | ATCC 1004 | - | 3 µg/mL
O=C(O)c1ccc(NC(=S)N/N=C/c2ccccc2O)cc1 | - | agar diffusion | 2.51 µM
C[C@H]1[C@H](O)[C@@H](C)/C=C/C=C/C=C/C=C/C=C/C=C/C=C/[C@H](O[C@@H]2O[C@H](C)[C@@H](O)[C@H](N)[C@@H]2O)C[C@@H]2O[C@](O)(C[C@@H](O)C[C@@H](O)CC[C@H](O)[C@@H](O)C[C@@H](O)CC(=O)O[C@H]1C)C[C@H](O)[C@H]2C(=O)O | VPC 156/96 | broth dilution | 1.95 µg/mL
CC(C)=CCC/C(C)=C/CO | IOA-3 | broth dilution | 144 µg/mL
COC(=O)[C@]1(C)CCC[C@]2(C)c3ccc(C(C)C)cc3-c3[nH]c4c(OC)cccc4c3C12 | CGMCC3.316 | - | >100 µg/mL
O=C1C(c2ccc(Cl)cc2)=[N+]([O-])c2cc[n+]([O-])cc21 | - | - | 31.25 µg/mL
Cl.NCCS | MTCC 1349 | - | 670 µg/mL
CCCNC(=O)n1[se]c2ccccc2c1=O | - | agar | 1 µg/mL
C[C@@H]1[C@H](O)[C@@H](C)/C=C/C=C/CC/C=C/C=C/C=C/C=C/C(O[C@H]2O[C@H](C)[C@@H](O)[C@H](N)[C@@H]2O)CC2O[C@](O)(CC(O)C(O)CCC(O)CC(O)CC(O)CC(=O)O[C@H]1C)CC(O)C2C(=O)O | MTCC 282 | broth dilution / turbidity | 100 µg/mL
CC(C)=CCC/C(C)=C/CO | IOA-3 | broth dilution | 144 µg/mL
C[C@@H]1[C@H](O)[C@@H](C)/C=C/C=C/CC/C=C/C=C/C=C/C=C/C(O[C@H]2O[C@H](C)[C@@H](O)[C@H](N)[C@@H]2O)CC2O[C@](O)(CC(O)C(O)CCC(O)CC(O)CC(O)CC(=O)O[C@H]1C)CC(O)C2C(=O)O | ATCC 16888 | agar | 6.25 µg/mL
CN(C)c1ccc(/C=N/NC(=S)Nc2ccc(C(=O)NO)cc2)cc1 | - | agar diffusion | 1.69 µM
C[C@@H]1[C@H](O)[C@@H](C)/C=C/C=C/CC/C=C/C=C/C=C/C=C/C(O[C@H]2O[C@H](C)[C@@H](O)[C@H](N)[C@@H]2O)CC2O[C@](O)(CC(O)C(O)CCC(O)CC(O)CC(O)CC(=O)O[C@H]1C)CC(O)C2C(=O)O | MTCC 282 | broth dilution | 100 µg/mL
O=C1CCC(c2ccccc2)C(=O)N1CCCCN1CCN(c2ccc(F)cc2)CC1 | DSM 1988 | - | >100 µM
CCC(C)n1ncn(-c2ccc(N3CCN(c4ccc(OC[C@H]5CO[C@](Cn6cncn6)(c6ccc(Cl)cc6Cl)O5)cc4)CC3)cc2)c1=O | - | - | 8 µg/mL
Cc1ccc(/C=N/NC(=S)Nc2ccc(C(=O)O)cc2)cc1 | - | agar diffusion | 1.59 µM
FC(F)(F)c1cc(COc2cccc3cccnc23)cc(C(F)(F)F)c1 | - | broth dilution | >100 µg/mL
CCC(C)n1ncn(-c2ccc(N3CCN(c4ccc(OC[C@H]5CO[C@](Cn6cncn6)(c6ccc(Cl)cc6Cl)O5)cc4)CC3)cc2)c1=O | ATCC 6275 | broth dilution | 100 µg/mL
O=C1C(c2ccccc2)=[N+]([O-])c2ccccc21 | - | - | 62.5 µg/mL
CCOC(=O)n1[se]c2ccccc2c1=O | - | agar | 129 µg/mL
O=C1C(c2ccc(Oc3ccccc3)cc2)=[N+]([O-])c2ccccc21 | - | - | >125 µg/mL
COc1ccc(-c2csc(NS(=O)(=O)C3C(=O)ONN3c3ccc(C)cc3)n2)cc1 | MTCC 282 | broth dilution | 1000 µg/mL
O=C1CCC(c2ccccc2)C(=O)N1CCCN1CCN(c2ncccn2)CC1 | DSM 1988 | - | >100 µM
Oc1cccc2ccc(Cl)nc12 | ATCC 1004 | - | >100 µg/mL
FC(F)(F)c1ccc(COc2cccc3cccnc23)cc1 | - | broth dilution | >100 µg/mL
Cc1ccc(N2NOC(=O)C2S(=O)(=O)Nc2ccc(-n3c(-c4cccc(Cl)c4)nc4ccccc4c3=O)cc2)cc1 | MTCC 282 | broth dilution | 250 µg/mL
O=C(O)c1ccc(NC(=S)N/N=C/c2ccc(Cl)cc2)cc1 | - | agar diffusion | 1.38 µM
Cc1ccc(N2NOC(=O)C2S(=O)(=O)Nc2nc3cc(F)ccc3s2)cc1 | MTCC 282 | broth dilution | 1000 µg/mL
Oc1cccc2c(Cl)ccnc12 | ATCC 1004 | - | 3 µg/mL
CCCCCOc1ccc(-c2ccc(-c3ccc(C(=O)N[C@H]4C[C@@H](O)[C@@H](O)NC(=O)[C@@H]5[C@@H](O)[C@@H](C)CN5C(=O)[C@H]([C@H](C)O)NC(=O)[C@H]([C@H](O)[C@@H](O)c5ccc(O)cc5)NC(=O)[C@@H]5C[C@@H](O)CN5C(=O)[C@H]([C@H](C)O)NC4=O)cc3)cc2)cc1 | - | - | 0.015–0.03 µg/mL
[Al]#[P] | - | agar | 3 µg/mL
O=c1c2ccccc2[se]n1CO | - | agar | 228 µg/mL
Oc1cc(Br)cc2cccnc12 | ATCC 1004 | - | <1 µg/mL
O=C1C(c2ccccn2)=[N+]([O-])c2ccccc21 | - | - | 15.63 µg/mL
O=C(Nc1cccc(Cl)c1)n1[se]c2ccccc2c1=O | - | agar | 352 µg/mL
N#[N+]c1nc(-c2ccc([N+](=O)[O-])cc2)[nH]c1C(=O)N1CCCC1 | L32 | - | 200 µg/mL
O=C1C(c2ccc(Cl)cc2)=[N+]([O-])c2cc3c(cc21)OCO3 | - | - | >125 µg/mL
O=C1C(=O)c2ccccc2-c2ccccc21 | KACC 40280 | visual reading | 20 µg/mL
Cc1ccc(N2NOC(=O)C2S(=O)(=O)Nc2nc(-c3c(F)cc(Cl)cc3Cl)cs2)cc1 | MTCC 282 | broth dilution | 1000 µg/mL
COC(=O)[C@]1(C)CCC[C@]2(C)c3ccc(C(C)C)cc3-c3[nH]c4c(C)cccc4c3C12 | CGMCC3.316 | - | >100 µg/mL
COc1ccc(/C=N/NC(=S)Nc2ccc(C(=O)NO)cc2)cc1 | - | agar diffusion | 2.88 µM
COC(=O)[C@]1(C)CCC[C@]2(C)c3ccc(C(C)C)cc3-c3[nH]c4ccc(Br)cc4c3C12 | CGMCC3.316 | - | >100 µg/mL
Cc1ccc(N2NOC(=O)C2S(=O)(=O)Nc2nc(-c3ccc(F)cc3F)cs2)cc1 | MTCC 282 | broth dilution | 200 µg/mL
Clc1ccc(COc2cccc3cccnc23)cc1 | - | broth dilution | >100 µg/mL
N#CC(O)c1ccccc1 | A420 | broth dilution | 750 µg/mL
CC1=C(Cl)C(O)=CC(=O)C12Oc1cc(O)c(Cl)c(C)c1C2=O | MTCC 282 | broth dilution | 100 µg/mL
C[C@@H]1O[C@@H](OC[C@H]2O[C@@H](Oc3c(-c4ccc(O)cc4)oc4cc(O)cc(O)c4c3=O)[C@H](O)[C@@H](O)[C@@H]2O)[C@H](O)[C@H](O)[C@H]1O | - | - | 160 µg/mL
C[C@@H](c1nc(-c2ccc(C#N)cc2)cs1)[C@](O)(Cn1cncn1)c1cc(F)ccc1F | - | - | 0.125–16 µg/mL
CCCc1nc([N+]#N)c(C(=O)N2CCCC2)[nH]1 | L32 | - | >200 µg/mL
Cc1c(-c2ccccc2)c(=O)oc2ccc(-c3cc(-c4ccc(F)cc4)c4c(n3)-c3ccccc3CC4)cc12 | MTCC 282 | broth dilution / turbidity | >1000 µg/mL
COc1ccccc1N1CCN(CCCN2C(=O)CCC(c3ccccc3)C2=O)CC1 | DSM 1988 | - | >100 µM
CCCCn1[se]c2ccccc2c1=O | - | agar | 16 µg/mL
CCC(C)CC(C)CCCCCCCCC(=O)N[C@H]1C[C@@H](O)[C@H](NCCN)NC(=O)[C@@H]2[C@@H](O)CCN2C(=O)[C@H]([C@H](O)CCN)NC(=O)[C@H]([C@H](O)[C@@H](O)c2ccc(O)cc2)NC(=O)[C@@H]2C[C@@H](O)CN2C(=O)[C@H]([C@@H](C)O)NC1=O | - | - | 0.015–8 µg/mL

A second listing of 4 rows from above:

structure | strain | method | value
Cc1ccc(N2NOC(=O)C2S(=O)(=O)Nc2nc(-c3ccc(F)cc3F)cs2)cc1 | MTCC 282 | broth dilution | 200 µg/mL
CC1=C(C)C(=O)O[C@@H]([C@H](O)[C@]2(O)CC[C@]3(O)[C@@H]2CC[C@H]2[C@H]3CC=C3C=CCC(=O)[C@@]32C)C1 | - | - | 300 µg/mL
COc1ccccc1N1CCN(CCCN2C(=O)CCC(c3ccccc3)C2=O)CC1 | DSM 1988 | - | >100 µM
O=C1C(c2ccccc2)=[N+]([O-])c2ccccc21 | - | - | 62.5 µg/mL

Conditions beyond the fields shown may differ between rows. Blank or dashed fields: not listed here.